The values that follow come from US3932512A, “Antiviral 1,2,3,4-tetrahydro-1,-alkano naphthalenamine derivatives” (priority 1972, dated 1976).

This assay relates to influenza A2 virus Aichi/2/68. Description: preventive control of influenza A2 in mice, compound I at different levels. It is filed as in vivo, influenza A2 virus Aichi/2/68 (in Charles River white mice).

For the compound `N[C@H]1C[C@@H]2C[C@H]1c1ccccc12` (relative stereo) [Compound I], the Mean survival time stood at 10.5 days (40 mg/kg); 11.2 days (55 mg/kg); 12.4 days (70 mg/kg); 12.9 days (85 mg/kg); 13.6 days (100 mg/kg). Moreover, the “Mean survival time increase” value was determined as 0.4 days (40 mg/kg); 1.1 days (55 mg/kg); 2.3 days (70 mg/kg); 2.8 days (85 mg/kg); 3.5 days (100 mg/kg).
